Sequence variants of PSTVd loop 1 after infection

Values reported by Wu et al. 2024 (doi:10.1371/journal.ppat.1012142).

Region: loop 1 of PSTVd (intermediate strain), 5' to 3', with the closing base pair. Wild type: CCUCGG. Varied positions (N): CNNNNG.

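Three N. benthamiana plants were inoculated with the whole mutant pool. Progeny were sequenced from the inoculated region (day 5), the margin of the inoculated leaf (day 10) and systemic leaves (day 12).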

Values are reads per thousand in the sample; higher means more abundant, 0 means not found.
Each site shows the three plants.
"Pool" is the share in the plasmid pool used as inoculum, on the same scale.
The inoculated region was read from the minus strand, the other sites from the plus strand.
IR is the inoculated region, LM the leaf margin, Sys the systemic leaves.
Sequences that differ at fixed positions probably stem from PCR or sequencing errors, and defective variants can be carried along by functional ones.
Samples held 32,791 to 60,834 reads, so the smallest values rest on one or two reads.
Wild type was 20.1 per thousand in the pool and the most common sequence in every sample (inoculated region 197, 219, 222; leaf margin 828, 823, 779; systemic leaves 914, 907, 857).

sequence	pool	IR	LM	Sys
CGUACG	3.98	3.16 2.34 3.05	0 0 0	0 0 0
CGGGCG	3.68	2.66 2.68 2.47	0 0 0	0 0 0.0164
CCCUCG	4.23	3.19 2.77 2.66	0 0 0	0 0 0
CUAUUG	5.05	3.03 2.55 3.05	0 0 0	0 0 0.115
CAGGUG	3.71	3.14 3.04 2.38	0 0 0	0 0 0.0164
CAAAAG	3.26	2.79 2.70 2.27	0 0 6.40	0 0 2.55
CCAGAG	3.42	2.88 2.74 2.55	0 0 0	0 0 0
ACUCGA	0.0131	0 0 0	0 0 0	0 0 0
CUGUGG	3.30	3.16 3.00 2.32	0 0 0	0 0 0
CAACUU	0.0131	0 0 0	0 0 0	0 0 0
CUCCUG	4.55	2.60 2.74 2.86	0 0.0423 0	0 0.0359 0.0164
CCGAUG	3.23	3.14 2.62 2.29	0.0199 0.0211 3.99	0 0 0
GGUGUG	0.0131	0 0 0	0 0 0	0 0 0
CUCUGG	3.61	3.04 2.81 2.73	0.0199 0 0	0 0 0
CCUACG	3.68	2.90 2.32 3.16	0 0.0423 0	0 0 0
CGAUAG	3.81	2.95 2.66 2.70	0.0199 0.0211 0.0305	0 0 0
CUUCAG	3.71	3.27 2.83 2.84	0 0 0	0 0 0
CGCCCG	3.47	2.79 3.04 2.88	0 0.0211 0	0 0 0
CGGGUG	3.74	2.97 2.79 2.77	0 0 0.0305	0 0 0.0164
CUGACG	3.26	3.14 2.57 2.55	0.0199 0 0	0 0 0
CGAGUU	0.0131	0 0 0	0 0 0	0 0 0
CUCAUG	4.77	3.14 2.62 2.86	0 0.0211 0	0 0 0
CCGCGG	4.02	3.06 3.62 2.84	0.199 0.423 0.244	4.39 3.84 3.95
CAGACG	3.67	0 2.66 2.43	0.0199 0 0	0 0 0
CCUCGC	0.0131	0.0554 0 0.107	0.199 0.296 0.0305	0.0203 0.0539 0.0658
CCAAGG	3.60	2.86 2.89 2.91	0 0 0.0305	0 0 0
CGGUAG	5.03	3.38 2.83 2.68	0.0199 0 0	0.0406 0 0.0329
CGACCG	3.56	2.93 2.68 2.64	0 0 0.0305	0 0 0.0329
CUUUAG	4.06	3.04 2.76 2.52	0 0 0.0305	0 0 0
CCUGGU	0.0263	0.0738 0.0375 0.0536	0 0 0	0.0203 0.0180 0.0164
CGAUGG	3.64	3.16 2.57 2.61	0.0199 0 0	0 0 0
CCGUCG	4.68	3.21 3.22 3.25	16.2 7.31 8.36	0 0 0.0493
CCGGAG	3.72	3.19 3.02 2.63	0 0 0	0 0 0
CGUCCG	4.53	2.88 3.30 2.86	0.0199 0.0211 0	0 0.0180 0.0329
CACGAG	3.48	3.04 2.53 2.75	0 0 0	0 0 0
CAAAUG	4.06	2.55 2.42 2.80	0.0199 0 0	0 0 0
CCGCAG	3.39	2.99 2.44 2.79	0 0 0.0305	0 0 0
CGUCAG	4.34	3.17 3.17 2.84	0 0.0211 0	0 0 0.0164
CCGAGG	3.46	3.14 2.38 2.89	0 0.0211 0	0 0 0
CACGCG	3.22	2.77 2.83 2.30	0 0.0211 0	0 0 0
CAGGGG	4.66	2.86 2.79 2.68	0.0199 0.0211 0.0305	0 0 0.0822
CUUAAG	3.06	2.86 2.94 2.80	0 0.0211 0	0 0 0
CGAGAG	3.31	2.80 2.85 2.39	0 0 0	0 0 0
CGAUCG	5.19	2.60 2.76 2.73	0.0199 0.0211 0	0 0 0.0164
CAGCUG	4.69	3.43 3.21 2.79	0.0199 0 0	0 0 0.0493
CGUUCG	4.15	2.86 2.98 2.64	0 0 0.0305	0 0 0
CGUGAG	3.88	3.06 2.66 2.30	0 0 0	0 0 0
CGCAUG	4.51	2.73 2.49 3.02	0 0.0211 0	0 0.0180 0.0329
CGCAAG	4.43	3.04 2.62 2.22	0 0 0.0610	0 0 0.0164
CGAGCG	3.81	2.38 3.07 2.84	0.0199 0.0211 0	0 0 0.0164
CUACUG	3.15	2.82 2.68 2.50	0 0 0	0 0 0
CCUCUG	5.16	4.74 3.60 4.20	0.995 1.25 42.7	17.8 27.8 19.8
CCACCU	0.0131	0 0 0	0 0 4.24	0 0 1.18
AAUGGG	0.0131	0 0 0	0 0 0	0 0 0
CAUACG	4.36	3.03 2.70 2.97	0 0 0	0 0 0.0329
CGCUGU	0.0263	0 0 0	0 0 0	0 0 0
CACUAG	4.51	2.77 2.77 3.34	0 0.0211 0	0 0 0
CUUACG	3.76	2.99 2.79 2.77	0 0 0	0 0 0.0329
CGUGCG	4.07	3.01 2.38 2.59	0 0 0	0 0 0.0329
CAACCG	3.81	3.38 2.72 2.57	0 0 0.0305	0 0 0
CACAUG	3.38	2.80 2.70 2.68	0 0 3.23	0 0 1.59
CUGCAG	3.01	2.68 3.00 2.68	0.0199 0 0	0 0 0
CUAGCG	3.85	3.40 3.06 2.84	0 0 0	0 0 0
CUCGGA	0.0131	0.0369 0.0187 0.0179	0 0 0	0 0.0180 0.0164
CCUCCG	4.05	2.84 2.92 2.84	8.82 7.12 0	0.0609 0.0180 0
CCCCGG	3.60	2.99 3.15 2.88	0.159 0.106 0.122	0.122 3.50 3.62
CGUAAG	4.24	3.08 3.07 2.55	0 0 0	0 0 0.0493
CGAGGG	3.25	2.99 2.72 2.77	0.0199 0.0211 0.0305	0 0 0
CAGUGG	3.39	2.73 2.38 2.61	0.0199 0 4.09	0 0 1.32
CAACUG	4.83	2.88 2.76 2.97	0 0.0211 0.305	0 0 0.115
GGGUCG	0.0131	0 0 0	0 0 0	0 0 0
CCGGCG	3.78	2.71 2.59 2.52	0.0199 0 0	0 0 0
AUUGUG	0.0131	0 0 0	0 0 0	0 0 0